Four molecules from patent publication US20250228855A1 can be followed below.

Chains of the proteins cited; added tags and fusions are not shown.
UniProt Q8I5R7, whole entry: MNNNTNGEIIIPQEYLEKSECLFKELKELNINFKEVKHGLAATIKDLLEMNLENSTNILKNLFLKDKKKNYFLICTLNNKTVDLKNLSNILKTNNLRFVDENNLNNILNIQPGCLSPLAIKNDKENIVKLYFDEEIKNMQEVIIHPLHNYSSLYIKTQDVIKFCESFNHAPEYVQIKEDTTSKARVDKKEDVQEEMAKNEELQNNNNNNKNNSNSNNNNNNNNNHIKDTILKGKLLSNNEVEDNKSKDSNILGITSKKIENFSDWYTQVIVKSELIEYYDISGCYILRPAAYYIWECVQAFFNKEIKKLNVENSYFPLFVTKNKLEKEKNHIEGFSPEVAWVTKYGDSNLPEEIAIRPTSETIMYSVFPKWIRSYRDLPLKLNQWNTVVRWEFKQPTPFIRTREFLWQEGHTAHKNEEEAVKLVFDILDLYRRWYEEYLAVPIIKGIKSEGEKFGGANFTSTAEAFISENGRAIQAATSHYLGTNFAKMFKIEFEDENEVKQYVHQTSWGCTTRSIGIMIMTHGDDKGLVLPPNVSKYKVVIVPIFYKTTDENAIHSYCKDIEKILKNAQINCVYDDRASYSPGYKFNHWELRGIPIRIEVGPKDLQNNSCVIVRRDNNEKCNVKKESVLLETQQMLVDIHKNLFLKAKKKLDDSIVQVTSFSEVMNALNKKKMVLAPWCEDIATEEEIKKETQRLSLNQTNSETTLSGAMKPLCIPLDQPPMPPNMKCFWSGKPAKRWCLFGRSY

Read-outs that look alike come from different tables or passages of the source. Marks after values point to notes of the source that are not given here.

The subject of one assay is P. falciparum Dd2-2D4. Particulars: for EC50: read-out: EC50 against Dd2-2D4 wildtype parasites, ABS P. falciparum, tested form: HBr.
The subject of assay [1] is halofuginone-induced (HFG-induced) P. falciparum. Particulars: compound had <50% growth inhibition.
The target of another assay is PfcProRS (Plasmodium falciparum, UniProt Q8I5R7). Briefly: TR-FRET ligand displacement assay with tracer MAT379, PfcProRS. It is filed as binding.
The mark [2] stands for this setting: read-out: PfcProRS (KD [nM]) +proline, 100 μM Pro.
Setting [3] is: read-out: PfcProRS (KD [nM]) −, no proline, no ATP.
Where [4] appears, read: read-out: KD for PfcProRS, absence of ATP, tested form: HBr.
The mark [5] stands for this setting: read-out: PfcProRS (KD [nM]) +proline, 100 μM Pro, tested form: HBr.

With `CC(C)(C)OC(=O)N1CCC[C@H](OC(=O)NS(=O)(=O)NC2CCN(C(=O)Nc3nccnc3C(=O)NC3Cc4ccccc4C3)CC2)[C@H]1CC(=O)Cn1cnc2cc(Br)c(Cl)cc2c1=O` (relative stereo), in the assay on P. falciparum Dd2-2D4 (1 μM, compound had <50% growth inhibition), the “percent growth at 1 μM (Dd2 wt)” value was determined as 72% ††. Moreover, the “percent growth at 1 μM (Halofuginone-induced)” value in assay [1] came out at 98% ††. Further, the Kd at PfcProRS (setting [2]) came to 179 nM; on PfcProRS (setting [3]) it was 227 nM.

Regarding `CC(C)(C)OC(=O)N1CCC[C@H](OC(=O)NS(=O)(=O)NCC2CCN(C(=O)Nc3nccnc3C(=O)NC3Cc4ccccc4C3)CC2)[C@H]1CC(=O)Cn1cnc2cc(Br)c(Cl)cc2c1=O` (relative stereo), the Kd at PfcProRS (setting [2]) was determined as 279 nM; on PfcProRS (setting [3]), 455 nM.

For the molecule `O=C(C[C@H]1NCCC[C@@H]1OC(=O)NS(=O)(=O)NC1CCN(C(=O)Nc2nccnc2C(=O)NC2Cc3ccccc3C2)CC1)Cn1cnc2cc(Br)c(Cl)cc2c1=O` (relative stereo), the EC50 in the assay on P. falciparum Dd2-2D4 was determined as 18.7 nM. Further, the Kd on PfcProRS (setting [4]) was 0.821 nM; on PfcProRS (setting [5]) it was 0.772 nM; on PfcProRS (read-out: PfcProRS (KD [nM]) −, no proline, no ATP, tested form: HBr), 0.821 nM.

Take `O=C(C[C@H]1NCCC[C@@H]1OC(=O)NS(=O)(=O)NCC1CCN(C(=O)Nc2nccnc2C(=O)NC2Cc3ccccc3C2)CC1)Cn1cnc2cc(Br)c(Cl)cc2c1=O` (relative stereo): the EC50 with P. falciparum Dd2-2D4 is 18.7 nM. In addition, the Kd at PfcProRS (setting [4]) turned out to be 0.68 nM; on PfcProRS (setting [5]), 0.729 nM.
